Measured values from several laboratories, pooled; numbers as filed in NIAID ChemDB.

Common to all: whole-cell or culture tests; species: HIV-1; endpoint: fold resistance

An empty or dashed field is not shown. Rows are shuffled and stem from different studies. Fold resistance has wild type as its base.

Nc1nc(NC2CC2)c2ncn([C@H]3C=C[C@@H](CO)C3)c2n1 ; mutations: RT-K70E ; read by: cytopathic effect / XTT ; strain or isolate: HXB2D (RT K70E recombinant) ; cell line: MT-2 ; result: 1.75
CCCc1c(SCC2CCC2)c2cc(Cl)ccc2[nH]c1=O ; mutations: RT-Y181C ; strain or isolate: Nevirapine-resistant (RT Y181C) ; cell line: MT-4 ; result: 2.97
Cc1occc1C(=S)Nc1ccc(Cl)c(/C=N/N(C)C)c1 ; mutations: RT-Y188L ; read by: syncytia ; strain or isolate: HEPT-resistant (RT Y188L) ; cell line: CEM ; result: <250
Nc1ccn([C@@H]2C=C[C@H](CO)O2)c(=O)n1 ; mutations: RT-M184V ; read by: RT activity ; cell line: PBMC ; result: 17
CCCc1nc(-c2ccc(S(=O)(=O)N(CC(C)C)C[C@@H](O)[C@H](Cc3ccccc3)NC(=O)O[C@H]3CO[C@H]4OCC[C@H]43)cc2)co1 ; mutations: PR-L010F M046I M071V I084V ; read by: cytopathic effect / MTT ; cell line: MT-4 ; result: 219
CCn1c(C)c(C(=O)OC)c(C(=O)OC)c1Cc1ccccc1 ; mutations: RT-K103N Y181C ; read by: cytopathic effect / MTT ; strain or isolate: A17 ; cell line: MT-4 ; result: >3.1
O=S(=O)(Cc1ccccc1I)c1cccc[n+]1[O-] ; mutations: RT-E138K ; read by: syncytia ; strain or isolate: IIIB ; cell line: CEM ; result: 1.875
CCC(C)[C@@H](C(=O)N[C@@H](Cc1ccccc1)[C@H](O)CN(CC1CCCC1)S(=O)(=O)c1ccc(/C=N/O)cc1)N1CCN(Cc2cnccc2C)C1=O ; mutations: PR-L10F V32I M46I I47V Q68E I84V ; read by: cytopathic effect / MTT ; strain or isolate: A17 (LPV-resistant) ; cell line: MT-4 ; result: 1
CC(C)=CCN1Cc2cc(Cl)cc3[nH]c(=O)n(c23)C[C@@H]1C ; mutations: RT-Y181C ; read by: cytopathic effect / XTT ; strain or isolate: IIIB ; cell line: MT-4 ; result: 496
C=CCNC(=O)CSc1cnc(Nc2ccc(C#N)cc2)nc1Oc1c(C)cc(C#N)cc1C ; mutations: L100I ; read by: MTT ; cell line: MT-4 ; result: 6.9
CCCc1c(Cc2cc(C)cc(C)c2)n(COC2C=CCCC2)c(=O)[nH]c1=O ; mutations: RT-K103N Y181C ; read by: cytopathic effect / MTT ; strain or isolate: NNRTI-resistant (RT K103N Y181C) A17 ; cell line: MT-4 ; result: >3333
CCC(C)[C@@H](C(=O)N[C@@H](Cc1ccccc1)[C@H](O)CN(CC1CCCC1)S(=O)(=O)c1ccc(/C=N/O)cc1)N1CCN(Cc2cccc(C)n2)C1=O ; mutations: PR-L10F V32I M46I I47V Q68E I84V ; read by: cytopathic effect / MTT ; strain or isolate: A17 (LPV-resistant) ; cell line: MT-4 ; result: 0.8
Cc1cc2cn[nH]c2cc1NC(=O)COc1ccc(Cl)cc1C(=O)c1cccc(C#N)c1 ; mutations: RT-Y188C ; read by: β-galactosidase ; strain or isolate: HXB2 ; cell line: HeLa + HELA CD4+ ; result: ~1
CCCc1c(OCC2CC2)c2cc(Cl)ccc2[nH]c1=O ; mutations: RT-Y181C ; strain or isolate: Nevirapine-resistant (RT Y181C) ; cell line: MT-4 ; result: 15.3
CCCc1c(Cc2cc(C)cc(C)c2)n(COC/C(C)=C/c2ccccc2)c(=O)[nH]c1=O ; mutations: RT-K103N Y181C ; read by: cytopathic effect / MTT ; strain or isolate: NNRTI-resistant (RT K103N Y181C) A17 ; cell line: MT-4 ; result: >3333
COCCNC(=O)CSc1cnc(Nc2ccc(C#N)cc2)nc1Oc1c(C)cc(C#N)cc1C ; mutations: Y188L ; read by: MTT ; cell line: MT-4 ; result: 5.4
Cc1nc(-c2ccc(S(=O)(=O)N(CC(C)C)C[C@@H](O)[C@H](Cc3ccccc3)NC(=O)O[C@H]3CO[C@H]4OCC[C@H]43)cc2)co1 ; mutations: PR-L010F M046I M071V I084V ; read by: cytopathic effect / MTT ; cell line: MT-4 ; result: 42
C#CCNC(=O)CSc1cnc(Nc2ccc(C#N)cc2)nc1Oc1c(C)cc(C#N)cc1C ; mutations: E138K ; read by: MTT ; cell line: MT-4 ; result: 2.9
CC(C)CN(C[C@@H](O)[C@H](Cc1ccccc1)NC(=O)O[C@H]1CO[C@H]2OCC[C@H]21)S(=O)(=O)c1ccc(-c2cnc(NC(=O)O[C@H]3CO[C@H]4OCC[C@H]43)[nH]2)cc1 ; mutations: PR-L010F M046I M071V I084V ; read by: cytopathic effect / MTT ; cell line: MT-4 ; result: 2.6
CSc1nc2c(c(N(C)C)n1)C=Nn1c(nc3ccccc31)S2 ; mutations: RT-L100I ; read by: cytopathic effect / XTT ; strain or isolate: OC(RT-L100I) ; cell line: CEM + CEM-SS ; result: 0.1
CCC(C)[C@@H](C(=O)N[C@@H](Cc1ccccc1)[C@H](O)CN(CC(C)C)S(=O)(=O)c1ccc(/C=N/O)cc1)N1CC(=O)N(Cc2ccccn2)C1=O ; mutations: PR-L10F V32I M46I I47V Q68E I84V ; read by: cytopathic effect / MTT ; strain or isolate: A17 (LPV-resistant) ; cell line: MT-4 ; result: 2
Cc1c(O)cccc1C(=O)N[C@@H](Cc1ccccc1)[C@H](O)CN(CC(C)C)S(=O)(=O)c1ccc2nc(N)sc2c1 ; mutations: PR-L10F M46I M71V I84V ; read by: cytopathic effect / MTT ; strain or isolate: F ; cell line: MT-4 ; result: 1380
CC(C)c1c(OCC2CCC2)c2cnccc2[nH]c1=O ; mutations: RT-Y181C ; strain or isolate: Nevirapine-resistant (RT Y181C) ; cell line: MT-4 ; result: 32
Cc1cc(C#N)cc(C)c1Oc1nc(Nc2ccc(C#N)cc2)ncc1SCC(=O)NCc1ccc(O)cc1 ; mutations: F227L V106A ; read by: MTT ; cell line: MT-4 ; result: 39.2
Cc1cc(S(N)(=O)=O)ccc1NC(=O)COc1ccc(Cl)cc1C(=O)c1cccc(C#N)c1 ; mutations: RT-K103N L100I ; read by: β-galactosidase ; strain or isolate: HXB2 ; cell line: HeLa + HELA CD4+ ; result: ~1
CCC(C)[C@@H](C(=O)N[C@@H](Cc1ccccc1)[C@H](O)CN(CC(C)C)S(=O)(=O)c1ccc(/C=N/O)cc1)N1CCN(Cc2ccc(OC)nc2)C1=O ; mutations: PR-L10F V32I M46I I47V Q68E I84V ; read by: cytopathic effect / MTT ; strain or isolate: A17 (LPV-resistant) ; cell line: MT-4 ; result: 1
Cc1cc(C#N)cc(C)c1Oc1nc(Nc2ccc(C#N)cc2)ncc1SCC(=O)NC1CC1 ; mutations: E138K ; read by: MTT ; cell line: MT-4 ; result: 4.3
COc1cccc(-c2nc(-c3ccc(S(=O)(=O)N(CC(C)C)C[C@@H](O)[C@H](Cc4ccccc4)NC(=O)O[C@H]4CO[C@H]5OCC[C@H]54)cc3)co2)c1 ; mutations: PR-L010F M046I M071V I084V ; read by: cytopathic effect / MTT ; cell line: MT-4 ; result: 77
Cc1cc(S(N)(=O)=O)ccc1NC(=O)COc1ccc(Cl)cc1C(=O)c1cc(F)cc(C(F)(F)F)c1 ; mutations: RT-V108I ; read by: β-galactosidase ; strain or isolate: HXB2 ; cell line: HeLa + HELA CD4+ ; result: ~1
Cc1cc(C)c(CS(=O)c2cccc[n+]2[O-])c(C)c1 ; mutations: RT-E138K ; read by: syncytia ; strain or isolate: IIIB ; cell line: CEM ; result: 4.16
CCCc1c(Cc2cc(C)cc(C)c2)n(COC/C=C/c2ccccc2)c(=O)[nH]c1=O ; mutations: RT-K103N Y181C ; read by: cytopathic effect / MTT ; strain or isolate: NNRTI-resistant (RT K103N Y181C) A17 ; cell line: MT-4 ; result: >1666
Cc1cc2[nH]cnc2cc1NC(=O)COc1ccc(Cl)cc1C(=O)c1cc(F)cc(C(F)(F)F)c1 ; mutations: RT-V106A Y181C ; read by: β-galactosidase ; strain or isolate: HXB2 ; cell line: HeLa + HELA CD4+ ; result: ~100
CCC(C)c1c(OC2CCCC2)c2cc(Cl)ccc2[nH]c1=O ; mutations: RT-Y181C ; strain or isolate: Nevirapine-resistant (RT Y181C) ; cell line: MT-4 ; result: 35.3
CC(C)CN(C[C@@H](O)[C@H](Cc1ccccc1)NC(=O)O[C@H]1CO[C@H]2OCC[C@H]21)S(=O)(=O)c1ccc(-c2coc(-c3ccco3)n2)cc1 ; mutations: PR-L010F M046I M071V I084V ; read by: cytopathic effect / MTT ; cell line: MT-4 ; result: 44.7
CCCc1c(OCc2ccccc2)c2cc(Cl)ccc2[nH]c1=O ; mutations: RT-Y181C ; strain or isolate: Nevirapine-resistant (RT Y181C) ; cell line: MT-4 ; result: >3.38
CCc1c(Cc2cc(C)cc(C)c2)n(COC/C(C)=C/c2ccccc2)c(=O)[nH]c1=O ; mutations: RT-K103N Y181C ; read by: cytopathic effect / MTT ; strain or isolate: NNRTI-resistant (RT K103N Y181C) A17 ; cell line: MT-4 ; result: 1333
O=C(O[C@@H]1[C@H](OC(=O)c2ccccc2)[C@@H](CO)O[C@H]1n1cnc2c(N(C(=O)c3ccccc3)C(=O)c3ccccc3)ncnc21)c1ccccc1 ; mutations: N155H ; read by: β-galactosidase ; strain or isolate: NL4-3 ; cell line: HeLaP4 ; result: 1.04
Nc1nc(NC2CC2)c2ncn([C@H]3CO[C@@H](CO)O3)c2n1 ; mutations: RT-K65R ; read by: RT activity ; strain or isolate: IIIB BCH-13520-resistant (RT K65R) ; cell line: MT-2 ; result: 3.6
CCC(C)[C@@H](C(=O)N[C@@H](Cc1ccccc1)[C@H](O)CN(CC(C)C)S(=O)(=O)c1ccc(/C=N/O)cc1)N1CCN(Cc2cccc(COC)n2)C1=O ; mutations: PR-L10F V32I M46I I47V Q68E I84V ; read by: cytopathic effect / MTT ; strain or isolate: A17 (LPV-resistant) ; cell line: MT-4 ; result: 1
Cc1cc(C#N)cc(C)c1Oc1nc(Nc2ccc(C#N)cc2)ncc1SCC(=O)NCCN1CCOCC1 ; mutations: Y188L ; read by: MTT ; cell line: MT-4 ; result: 7.3
COc1ccc(/C=C/CSc2nc(C(C)c3c(Cl)cccc3Cl)c(C)c(=O)[nH]2)cc1 ; mutations: RT-Y188L ; read by: cytopathic effect / MTT ; strain or isolate: NNRTI-resistant ; cell line: MT-4 ; result: 14000
CC(C)=CCOc1cc(NC(=S)c2ccsc2C)ccc1Cl ; mutations: RT-K101E ; read by: p24 ; strain or isolate: NL4-3 ; cell line: CEM + CEM-SS ; result: 1
COc1ccc(/C=C/CSc2nc(Cc3c(F)cccc3F)c(C)c(=O)[nH]2)cc1 ; mutations: RT-Y181C ; read by: cytopathic effect / MTT ; strain or isolate: NNRTI-resistant ; cell line: MT-4 ; result: >9139
CCOc1c(Cl)cc(F)c(CCNC(=S)Nc2ccc(Br)cn2)c1Cl ; mutations: RT-L100I ; read by: cytopathic effect / XTT ; strain or isolate: IIIB ; cell line: MT-4 ; result: 76.9
Cc1cc(C#N)cc(C)c1Oc1nc(Nc2ccc(C#N)cc2)ncc1SCC(=O)NCCN1CCN(C(=O)OC(C)(C)C)CC1 ; mutations: L100I ; read by: MTT ; cell line: MT-4 ; result: 2.2
CCc1c(Cc2c(Cl)cccc2Cl)nc(SC/C=C/c2ccc(C#N)cc2)[nH]c1=O ; mutations: RT-K103N ; read by: cytopathic effect / MTT ; strain or isolate: NNRTI-resistant ; cell line: MT-4 ; result: 20.12
CC(C)CN(C[C@@H](O)[C@H](Cc1ccccc1)NC(=O)[C@H](C(C)C)N1CC(=O)N(Cc2ccccn2)C1=O)S(=O)(=O)c1ccc(/C=N/O)cc1 ; mutations: PR-L10F V32I M46I I47V Q68E I84V ; read by: cytopathic effect / MTT ; strain or isolate: A17 (LPV-resistant) ; cell line: MT-4 ; result: 5
CCc1c(Cc2cc(C)cc(C)c2)n(COC2C=CCCC2)c(=O)[nH]c1=O ; mutations: RT-Y181C ; read by: cytopathic effect / MTT ; strain or isolate: NNRTI-resistant (RT Y181C) N119 ; cell line: MT-4 ; result: >2500
CC1=C(C(=O)Nc2ccc(Cl)c(C(=O)OC(C)C)c2)SCCO1 ; mutations: RT-L100I ; read by: syncytia ; strain or isolate: IIIB ; cell line: CEM ; result: >2670
CCCc1c(OC2CCCC2)c2cc(F)ccc2[nH]c1=O ; mutations: RT-Y181C ; strain or isolate: Nevirapine-resistant (RT Y181C) ; cell line: MT-4 ; result: 7.66
CCc1c(C(=O)c2cc(C)cc(C)c2)n(CC2CC=CC2)c(=O)[nH]c1=O ; mutations: RT-Y181C ; strain or isolate: IIIB SJ-3366 P4 (RT Y181C) ; result: 15

The last 3 rows once more:

compound,mutations,read by,strain or isolate,cell line,result
CC1=C(C(=O)Nc2ccc(Cl)c(C(=O)OC(C)C)c2)SCCO1,RT-L100I,syncytia,IIIB,CEM,>2670
CCCc1c(OC2CCCC2)c2cc(F)ccc2[nH]c1=O,RT-Y181C,,Nevirapine-resistant (RT Y181C),MT-4,7.66
CCc1c(C(=O)c2cc(C)cc(C)c2)n(CC2CC=CC2)c(=O)[nH]c1=O,RT-Y181C,,IIIB SJ-3366 P4 (RT Y181C),,15